{"source": "patent US20170303554A1", "about": "“METHOD OF SANITIZING EDIBLE SEEDS, PARTICULARLY MUCILAGE PRODUCING SEEDS” (AGRI-NEO INC., priority 2014, published 2017)", "key": {"[1]": {"assay": "Physical characteristics of treated seeds, incl. mucilage (Example 1)", "settings": "40 L/tonne"}, "[2]": {"assay": "Organoleptic assessment of treated seeds (Example 1)", "settings": "40 L/tonne"}}}
{"molecule": "CCO", "note": "[2- Alcohol - ethanol, ethanol]", "values": [{"measurement": "Physical Characteristics", "setting": "[1]; black pepper", "result": "No effect"}, {"measurement": "Physical Characteristics", "setting": "[1]; chia seeds", "result": "No mucilage"}, {"measurement": "Physical Characteristics", "setting": "[1]; flax seeds", "result": "No mucilage"}, {"measurement": "Physical Characteristics", "setting": "[1]; hemp", "result": "No effect"}, {"measurement": "Physical Characteristics", "setting": "[1]; pea fiber", "result": "No effect"}, {"measurement": "Physical Characteristics", "setting": "[1]; sprouted flax and chia", "result": "No mucilage"}, {"measurement": "Physical Characteristics", "setting": "[1]; vanilla", "result": "No effect"}, {"measurement": "Physical Characteristics", "setting": "[1]; whole dried pea", "result": "No effect"}, {"measurement": "Physical Characteristics", "setting": "[1]; whole split pea", "result": "No effect"}, {"measurement": "Organoleptic", "setting": "[2]; black pepper", "result": "No effect"}, {"measurement": "Organoleptic", "setting": "[2]; chia seeds", "result": "No mucilage"}, {"measurement": "Organoleptic", "setting": "[2]; flax seeds", "result": "No mucilage"}, {"measurement": "Organoleptic", "setting": "[2]; hemp", "result": "No effect"}, {"measurement": "Organoleptic", "setting": "[2]; pea fiber", "result": "No effect"}, {"measurement": "Organoleptic", "setting": "[2]; sprouted flax and chia", "result": "No mucilage"}, {"measurement": "Organoleptic", "setting": "[2]; vanilla", "result": "No effect"}, {"measurement": "Organoleptic", "setting": "[2]; whole dried pea", "result": "No effect"}, {"measurement": "Organoleptic", "setting": "[2]; whole split pea", "result": "No effect"}]}
